The index is printed as in the source, without its formula.
System: HIV
Assay: In vitro anti-HIV activity, PBMC cell-based assay, side by side with AZT
Details: side by side comparison with AZT

SMILES | Therapeutic Index
O=C(O)/C(O)=C/C(=O)c1cn(Cc2ccccc2)c(=O)n(Cc2ccccc2)c1=O | > 10,000
Cc1cn([C@H]2C[C@H](N=[N+]=[N-])[C@@H](CO)O2)c(=O)[nH]c1=O [AZT] | 5,511
